pIC50: −log10 of the molar value.
Legend:
[1] = molecular target: NA of Ind3006 (A/Indonesia/UT3006/05, H5N1) (Influenza A virus, UniProt I6YWY9); assay: NA activity inhibition assay (MUNANA); type: biochemical; settings: read-out: IC50 (95% confidential interval), mean of duplicate reactions
[2] = tested on: NA of A/New Caledonia/20/99 (H1N1); assay: Binding stability of NA inhibitors to virus NA; design: species or system influenza A virus (H1N1)
[3] = tested on: NA of A/Panama/2007/99 (H3N2); assay: Binding stability of NA inhibitors to virus NA; design: species or system influenza A virus (H3N2)
NA of B/Mie/1/93 = assay: Binding stability of NA inhibitors to virus NA; design: species or system influenza B virus
[4] = in vitro; cited from earlier work
[5] = compound minus 3 (Oseltamivir carboxylate)
[6] = linear regression of fluorescence 0 to 50000, intercept 0

Compound: CO[C@@H]([C@@H]1OC(C(=O)O)=C[C@H](N=C(N)N)[C@H]1NC(C)=O)[C@H](O)CO
- pIC50 [1]: 9.54
- Slope difference ([2]; compound minus 2 (Zanamivir)): -92.66
- Slope difference [2, 5]: -125.91
- Slope difference ([2]; compound minus 4 (Peramivir)): 4.34
- Slope difference ([2]; compound minus 5 (Background)): -452.18
- Slope of the dissociation curve [2, 6]: 47.44
- Slope difference ([3]; compound minus 2 (Zanamivir)): -1.46
- Slope difference [3, 5]: -6.32
- Slope difference ([3]; compound minus 4 (Peramivir)): 0.46
- Slope difference ([3]; compound minus 5 (Background)): -48.35
- Slope of the dissociation curve [3, 6]: 0.65
- Slope difference (NA of B/Mie/1/93; compound minus 2 (Zanamivir)): -118.54
- Slope difference (NA of B/Mie/1/93; [5]): -315.65
- Slope difference (NA of B/Mie/1/93; compound minus 4 (Peramivir)): -115.10
- Slope difference (NA of B/Mie/1/93; compound minus 5 (Background)): -888.52
- Slope of the dissociation curve (NA of B/Mie/1/93; [6]): 65.56
- cytotoxicity [4]: limited cytotoxicity
